Results of unrelated studies side by side (data: NIAID ChemDB).

Common to all: whole-cell or culture tests

a–b is a range or a potency band. An empty or dashed field is not shown. MIC50, MIC90 and the like: level of inhibition, or share of isolates inhibited. ECn: concentration that inhibits the pathogen or its effect by n%. Percent inhibition refers to the dose given; in toxicity tests it is the harm to the cells. Rows are shuffled and stem from different studies.

structure	species	strain or isolate	cell line	read by	measure	dose	value
CN[C@H]1CC[C@@H](c2ccc(Cl)c(Cl)c2)c2ccccc21	Cryptococcus neoformans	UA 1993	-	broth dilution	MFC	-	8 µg/mL
O=C(NCc1ccc(Cl)cc1)c1c[nH]c2c(F)cccc2c1=O	Varicella zoster virus	CAR	-	plaque count	EC50	-	1.5 µM
CC(C)Oc1ccc(-n2c(C(=O)NCc3ccc(CO)cc3)c3n(c2=O)CCN(C(=O)c2ccc(Br)c(Cl)c2)C3)cc1	Hepatitis B virus	-	HepG2.117	PCR	EC50	-	>5 µM
Cn1cc(C(=O)NCc2ccc(Cl)cc2)c(=O)c2cc(CN3CCOCC3)ccc21	Varicella zoster virus	Varicella isolate RN	HFF	plaque count	inhibition	1.2 µM	90%
O=C(Nc1ccc(S(=O)(=O)[O-])c2cccc(S(=O)(=O)[O-])c12)c1ccccc1	Adenovirus	TYPE 3	Human embryonic lung cells	cytopathic effect	inhibition	50 µg/mL	30%
Cc1cc(CCCOc2c(C)cc(-c3noc(C(F)(F)F)n3)cc2C)on1	Rhinovirus	Isolate 44	OHIO HELA-I	cytopathic effect / visual reading	EC50	-	0.05 µg/mL
C=CCc1ccc(O)c(OC)c1	Candida albicans	3253	-	turbidity	MIC90	-	475 µg/mL
CCOC(=O)c1c(C)nc(OCCCNc2ccnc3cc(Cl)ccc23)nc1-c1ccccc1	Cryptococcus neoformans	VM-MCMMPI	-	-	MIC99	-	8 µg/mL
CCO/N=C/c1ccc(OCCC2CCN(c3ccc(Cl)nn3)CC2)cc1	Rhinovirus	181-CV16 (ICAM-1 receptor group 12)	KB	neutral red	EC50	-	0.014 µM
O=c1[nH]c(=O)n([C@H]2C[C@H](O)[C@@H](CO)O2)cc1/C=C/Br	Varicella zoster virus	YS	HELF	plaque count	inhibition	0.1 µg/mL	100%
COc1ccc(-n2c(C(=O)NCc3ccc(C)c(OC)c3)c3n(c2=O)CCN(C(=O)c2ccc(Cl)c(Cl)c2)C3)cc1	Hepatitis B virus	-	HepG2.117	PCR	EC50	-	0.5–5 µM
CC(=O)N[C@H]1[C@H]([C@H](O)[C@H](O)CO)OC(C(=O)O)=C[C@@H]1N=C(N)N	Influenza A virus	H1N1 A/PR/8/34	MDCK	-	EC50	-	0.42 µM
CCC(CC)O[C@@H]1C=C(C(=O)O)C[C@H](N)[C@H]1NC(C)=O	Influenza A virus	Influenza A H3N2 isolate C34C	MDCK	plaque count	EC50	-	≤0.01 µg/mL
O=S(=O)(O)c1cccc2c(O)cccc12	Herpes simplex virus	-	Human amnion AV3 cells	cytopathic effect	inhibition	10 µg/mL	5%
Nc1ncnc2c1ncn2C=C1CC1CO	Human cytomegalovirus	VR6189 (ganciclovir-susceptible)	-	plaque count	EC90	-	4.7 µM
O=C(NCc1ccccc1)c1c2n(c(=O)n1-c1ccc3nonc3c1)CCN(C(=O)c1ccc(Br)c(Cl)c1)C2	Hepatitis B virus	-	HepG2.117	PCR	EC50	-	0.5–5 µM
CCOC(=O)c1c(C)nc(NCCCCNc2ccnc3cc(Cl)ccc23)nc1-c1ccccc1[N+](=O)[O-]	Cryptococcus gattii	L 27/01	-	-	MIC99	-	32 µg/mL
C=Cc1cn([C@@H]2O[C@H](CO)[C@@H](O)[C@@H]2O)c(=O)[nH]c1=O	Varicella zoster virus	Ohtomo	HELF	plaque count	inhibition	1 µg/mL	100%
COc1cccc(CNC(=O)c2c3n(c(=O)n2-c2ccccc2)CCN(C(=O)c2ccc(Br)c(Cl)c2)C3)c1	Hepatitis B virus	-	HepG2.117	PCR	EC50	-	0.1–0.5 µM
O=S(=O)(O)c1cc(O)c2c(O)c(N=Nc3ccccc3)c(S(=O)(=O)O)cc2c1	Adenovirus	TYPE 3	Human amnion AV3 cells	cytopathic effect	inhibition	5 µg/mL	0%
Oc1ccc(O)c(C=Nc2ccccc2O)c1	Cryptococcus gattii	ATCC 24065	-	-	MIC99	-	8 µg/mL
NS(=O)(=O)O	Rhinovirus	-	Human embryonic lung cells	cytopathic effect	inhibition	10 µg/mL	0%
Cc1cn([C@@H]2O[C@H](CO)[C@@H](O)[C@@H]2F)c(=O)nc1N	Varicella zoster virus	Kawaguchi	HELF	plaque count	inhibition	0.001 µg/mL	0%
CCOC(=O)c1c(C)nc(NCCCNc2ccnc3cc(Cl)ccc23)nc1-c1ccccc1	Cryptococcus gattii	135L/03	-	-	MIC99	-	8 µg/mL
COc1cc(-c2ccc(N=Nc3ccc4c(S(=O)(=O)O)cc(S(=O)(=O)O)c(N)c4c3O)c(OC)c2)ccc1N=Nc1ccc2c(S(=O)(=O)O)cc(S(=O)(=O)O)c(N)c2c1O	Herpes simplex virus	-	Human amnion AV3 cells	cytopathic effect	inhibition	10 µg/mL	0%
Oc1ccccc1N=Cc1ccccc1	Cryptococcus gattii	ATCC 24065	-	-	MIC99	-	8 µg/mL
O=c1[nH]c(=O)n([C@@H]2O[C@H](CO)[C@@H](O)[C@@H]2O)cc1/C=C/Br	Varicella zoster virus	YS	HELF	plaque count	inhibition	0.001 µg/mL	77%
O=S(=O)([O-])c1ccc(NS(=O)(=O)c2ccccc2)c2c(S(=O)(=O)[O-])cccc12	Rhinovirus	-	Human amnion AV3 cells	cytopathic effect	inhibition	50 µg/mL	10%
Nc1nc2c(ncn2COCCO)c(=O)[nH]1	Varicella zoster virus	OKA	HELF	plaque count	inhibition	0.1 µg/mL	3%
Oc1ccccc1N=Cc1ccc2c(c1)OCO2	Cryptococcus gattii	1913 ER	-	-	MIC99	-	11.3 µg/mL

Repeating the final 3 entries:

O=S(=O)([O-])c1ccc(NS(=O)(=O)c2ccccc2)c2c(S(=O)(=O)[O-])cccc12 ; species: Rhinovirus ; cell line: Human amnion AV3 cells ; read by: cytopathic effect ; measure: inhibition ; dose: 50 µg/mL ; value: 10%
Nc1nc2c(ncn2COCCO)c(=O)[nH]1 ; species: Varicella zoster virus ; strain or isolate: OKA ; cell line: HELF ; read by: plaque count ; measure: inhibition ; dose: 0.1 µg/mL ; value: 3%
Oc1ccccc1N=Cc1ccc2c(c1)OCO2 ; species: Cryptococcus gattii ; strain or isolate: 1913 ER ; measure: MIC99 ; value: 11.3 µg/mL